Drawing on patent US5502036A, “Antiherpes pentapeptide derivatives having a substituted aspartic acid side chain” (priority 1989, dated 1996), this text covers IC50 for one compound.

By UniProt entry, the sequences of proteins in these tests, tags left out.
UniProt P08543, whole entry: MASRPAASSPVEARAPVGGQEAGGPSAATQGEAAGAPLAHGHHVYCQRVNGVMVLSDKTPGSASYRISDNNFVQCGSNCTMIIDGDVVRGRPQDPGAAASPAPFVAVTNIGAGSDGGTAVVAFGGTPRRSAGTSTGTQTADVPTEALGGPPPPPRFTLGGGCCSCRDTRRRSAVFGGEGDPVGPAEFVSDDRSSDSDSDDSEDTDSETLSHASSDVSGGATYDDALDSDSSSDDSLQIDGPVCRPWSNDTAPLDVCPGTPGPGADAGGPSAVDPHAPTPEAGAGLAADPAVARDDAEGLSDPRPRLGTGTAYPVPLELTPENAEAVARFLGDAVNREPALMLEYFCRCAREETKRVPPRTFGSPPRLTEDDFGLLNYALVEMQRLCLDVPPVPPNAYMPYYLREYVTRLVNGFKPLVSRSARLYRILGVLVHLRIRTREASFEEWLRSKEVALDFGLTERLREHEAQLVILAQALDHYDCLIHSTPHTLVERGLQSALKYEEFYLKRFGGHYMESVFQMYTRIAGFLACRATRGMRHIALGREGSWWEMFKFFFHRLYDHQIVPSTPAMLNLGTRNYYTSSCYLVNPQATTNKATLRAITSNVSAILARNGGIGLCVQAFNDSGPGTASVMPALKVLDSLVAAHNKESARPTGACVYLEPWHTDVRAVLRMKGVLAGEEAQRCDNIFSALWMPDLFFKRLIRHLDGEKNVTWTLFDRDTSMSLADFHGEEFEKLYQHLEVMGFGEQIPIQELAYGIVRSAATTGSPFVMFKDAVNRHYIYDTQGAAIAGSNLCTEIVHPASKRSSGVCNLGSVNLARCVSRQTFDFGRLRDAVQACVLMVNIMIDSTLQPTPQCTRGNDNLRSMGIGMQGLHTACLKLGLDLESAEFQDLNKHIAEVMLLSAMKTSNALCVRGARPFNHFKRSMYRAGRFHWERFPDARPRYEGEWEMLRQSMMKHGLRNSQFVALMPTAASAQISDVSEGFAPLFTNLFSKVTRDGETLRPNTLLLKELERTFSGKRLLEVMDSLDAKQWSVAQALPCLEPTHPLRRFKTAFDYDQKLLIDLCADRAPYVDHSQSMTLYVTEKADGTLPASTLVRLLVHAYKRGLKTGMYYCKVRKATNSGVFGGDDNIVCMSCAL

The test concerns the target HSV-1 ribonucleotide reductase (partially purified) (Human herpesvirus 1, UniProt P08543). Conditions: Table 5; concentration producing 50% of the maximal inhibition of enzyme activity; mean of four assays.

For part of its entries the source gives two or more results. This list holds those alone. There may be further records. Values that stand side by side do not match, cause unknown; some may be repeats, others may stem from another dose, organism or construct than stated.

On to `CC[C@H](C)[C@H](NC(=O)[C@H](C(C)C)N(C)C(=O)CCc1ccccc1)C(=O)N[C@@H](CC(=O)N1CCCC1)C(=O)NC(C(=O)N[C@@H](CC(C)C)C(=O)O)C(C)(C)C(=O)O` (stereo partly shown), for which the IC50 is 70 nM and 280 nM.
